Pooled drug test results. Numbers come from NIAID ChemDB, via PubChem.

Shared fields: target-level tests; agent: HIV-1; target: Reverse transcriptase

Blank or dashed fields: not listed here.

smiles,read-out,strain,read by,changes,result
C[C@H](CCC(=O)NCC(=O)O)[C@H]1CC[C@H]2[C@@H]3CC[C@@H]4C[C@H](OS(=O)(=O)O)CC[C@]4(C)[C@H]3CC[C@]12C,IC50,,,,94 µM
CC1(C)C2=CC(=O)C(c3ccccc3)C(=O)N2c2ccccc21,IC50,RF,nucleotide incorporation / radiometric,,>100 µM
Cc1cccc(NC(=S)NCCc2ccc(Br)s2)n1,IC50,,,,12.5 µM
COc1ccc2c(c1)N(C(=O)OC(C)C)[C@@H](CSC)C(=O)N2,IC50,,nucleotide incorporation,,0.01–0.1 µg/mL
C/C(=C\CC[C@@H](C)C1CC[C@@]2(C)[C@@H]3CC[C@H]4C(C)(C)C(=O)CC[C@]4(C)[C@@]3(O)CC[C@]12C)C(=O)O,IC50,,RT activity / radiometric,,143 µM
O=C(/C=C/c1ccc(O)c(O)c1/C=C/c1ccc(O)c(O)c1)O[C@H](Cc1ccc(O)c(O)c1)C(=O)O,IC50,,nucleotide incorporation / radiometric,,59.28 µg/mL
CCCc1cc(CCc2nc3c(Cl)ccc(Cl)c3o2)c(=O)[nH]c1C,IC50,,nucleotide incorporation,,0.03 µM
CC(=O)Oc1ccc(OC(C)=O)c(C[C@@]2(C)C3CCC[C@@](C)(CC[C@@]4(C)C5=CCCC(C)(C)[C@H]5CC[C@@H]4C)C3=CC[C@H]2C)c1,Ki,,nucleotide incorporation / radiometric,,26 µM
CC(C)c1c(CO)cn(Cc2ccncc2)c1Sc1cccc(F)c1,IC50,,nucleotide incorporation / radiometric,,0.48 µM
CCOc1ccccc1N1CCN(C(=O)c2cc3cc4c(cc3[nH]2)OCO4)CC1,IC50,IIIB,,RT-P236L,31.1 µM
Cc1c(C(C)c2c(F)cccc2F)nc(SC2CCCC2)[nH]c1=O,IC50,,nucleotide incorporation / radiometric,RT-V106A,0.5 µM
O=C(O)C(=NNc1ccc(Cl)cc1)C(=O)O,IC50,,radiometric,,4.5 µM
N#Cc1cc(Cl)cc(Oc2c(Br)ccc(Cn3ccc(=O)[nH]c3=O)c2F)c1,IC50,,scintillation proximity / radiometric,Wild type,0.004 µM
Nc1ncnc2c1ncn2[C@H]1CC[C@@H](COP(=O)(O)OP(=O)(O)OP(=O)(O)O)O1,IC50,HXB2,ELISA,,6.8 µM
CCCC(=O)N1c2cc(Cl)ccc2NC(=O)[C@@H]1C,IC50,,nucleotide incorporation,,1–10 µg/mL
CCOC(=O)c1cn(Cc2ccncc2)c(Sc2cc(F)cc(F)c2)c1C(C)C,IC50,,nucleotide incorporation / radiometric,,0.17 µM
O=C(/C=C/c1ccc(O)cc1)OC[C@H]1O[C@@H](Oc2c(-c3ccc(O)cc3)oc3cc(O)cc(O)c3c2=O)[C@H](O)[C@@H](O)[C@@H]1O,IC50,,RT activity,,>100 µg/mL
CC(C)=CCN1Cc2cccc3[nH]c(=S)n(c23)C[C@@H]1C,IC50,IIIB,nucleotide incorporation,,1.1 µM
C[C@H]1C(=O)Nc2ccc(Cl)cc2N1Cc1ccccc1,IC50,,nucleotide incorporation,,0.01–0.1 µg/mL
N#Cc1cc(Cl)cc(Oc2c(Br)ccc(Cc3ccc[nH]c3=O)c2F)c1,IC50,,scintillation proximity / radiometric,Wild type,0.019 µM
C[C@H](CCC(=O)O)[C@H]1CC[C@H]2[C@@H]3[C@H](O)C[C@@H]4C[C@H](O)CC[C@]4(C)[C@H]3C[C@H](O)[C@]12C,IC50,,,,>1000 µM
CC1(C)C2=CC(=O)C(O)(c3ccccc3)C(=O)N2c2ccccc21,IC50,RF,nucleotide incorporation / radiometric,,>100 µM
Cc1cn([C@@H]2O[C@H](CO[Si](C)(C)C(C)(C)C)[C@@]3(OS(=O)(=O)C=C3N)[C@H]2O[Si](C)(C)C(C)(C)C)c(=O)[nH]c1=O,IC50,IIIB,nucleotide incorporation,Purified RT,0.62 µM
CC1=CC(C2O[C@H](CO)C(N3C(=O)CS[C@H]3C3OC(n4cc(C)c(=O)[nH]c4=O)[C@@H](O)[C@H]3O)[C@H]2O)C(=O)NC1=O,IC50,,RT activity,,45.3 µM
COc1cc([C@@H]2c3cc4c(cc3[C@@H](O[C@@H]3O[C@@H]5CO[C@@H](C)O[C@H]5[C@H](O)[C@H]3O)[C@H]3COC(=O)[C@H]23)OCO4)cc(OC)c1O,IC50,,,,>100 µM
CC(C)c1c(COC(N)=O)cn(Cc2ccncc2)c1Sc1cccc(Cl)c1,IC50,,nucleotide incorporation / radiometric,,0.28 µM
COC(=O)C1C(=O)N(O)C(=O)c2ccccc21,IC50,,RT activity / nucleotide incorporation,,>50 µM
Nc1nc2c(ncn2[C@H]2CO[C@@H](COP(=O)(O)OP(=O)(O)OP(=O)(O)O)O2)c(=O)[nH]1,Ki,,,,0.019 µM
C[C@H]1C(=O)Nc2ccc(Cl)cc2N1Cc1ccccn1,IC50,,nucleotide incorporation,,0.1–1 µg/mL
O=c1[nH]c(=O)n([C@H]2C[C@H](F)[C@@H](COP(=O)(O)OP(=O)(O)OP(=O)(O)O)O2)cc1Cl,Ki,HXB2,nucleotide incorporation,,0.05 µM
C=C(C)OC(=O)N1c2cc(Cl)ccc2NC(=O)C12CCC2,IC50,,nucleotide incorporation,,0.1–1 µg/mL
S=C(NCCc1ccc(Br)s1)Nc1nccs1,IC50,,,,10 µM
N#Cc1cc(Cl)cc(Oc2c(Br)ccc(Cn3c(=O)[nH]c4ccccc43)c2F)c1,IC50,,scintillation proximity / radiometric,Wild type,0.013 µM
CC(C)Nc1cccnc1N1CCN(C(=O)c2cc3cc4c(cc3[nH]2)OCO4)CC1,IC50,IIIB,,,0.44 µM
Cc1cn([C@@H]2O[C@H](CO[Si](C)(C)C(C)(C)C)C3(OS(=O)(=O)C=C3N)[C@H]2O[Si](C)(C)C(C)(C)C)c(=O)n(C)c1=O,IC50,IIIB,nucleotide incorporation,,1.52 µM
COc1cc2c(ccc3c4cc(OC)c(OC)cc4c[n+](C)c23)cc1O,IC50,,RT activity / radiometric,,24.9 µM
O=C(Oc1c(-c2ccc(Cl)c(Cl)c2)oc2ccccc2c1=O)c1cc(OCc2ccccc2)c(OCc2ccccc2)c(OCc2ccccc2)c1,IC50,,,,>100 µM
CC(C)c1c(COC(N)=O)cn(Cc2ccncc2)c1Sc1cc(Cl)cc(Cl)c1,IC50,,nucleotide incorporation / radiometric,,0.7 µM
CC1(C)C2=CC(=O)C(c3ccccc3)([N+](=O)[O-])C(=O)N2c2ccc(Cl)cc21,IC50,RF,nucleotide incorporation / radiometric,,6 µM
c1ccc(C2SCc3nc4ccccc4n32)cc1,IC50,,,RT-V108I,>50 µM
C[C@H](CCC(=O)O)[C@H]1CC[C@H]2[C@@H]3CC[C@@H]4C[C@H](OS(=O)(=O)O)CC[C@]4(C)[C@H]3CC[C@]12C,IC50,,,,90 µM
CCN1c2cc(Br)c(Br)nc2N(C)C(=O)c2cccnc21,IC50,,nucleotide incorporation,,>>1 µM
Cn1cc(Cc2ccc(Br)c(Oc3cc(Cl)cc(C#N)c3)c2F)c(=O)[nH]c1=O,IC50,,scintillation proximity / radiometric,Wild type,0.006 µM
O=c1c(O)c(-c2ccc(O)c(O)c2)oc2cc(O)cc(O)c12,IC50,,RT activity,,100 µg/mL
COc1cc(C(=O)Oc2c(-c3ccc(Cl)c(Cl)c3)oc3ccccc3c2=O)ccc1OC(C)=O,IC50,,,,>100 µM
CCCN(C)c1nc([C@@H](C)c2c(F)cccc2F)c(C)c(=O)[nH]1,IC50,,RT activity,K103N,>20 µM
COc1ccccc1N1CCN(C(=O)c2cc3cc4c(cc3[nH]2)OCO4)CC1,IC50,IIIB,,RT-P236L,>>50 µM
COc1cc(C(=O)Oc2c(-c3ccc(Cl)cc3)oc3ccccc3c2=O)cc(OC)c1OC(C)=O,IC50,,,,>100 µM
Cc1cn(Cc2ccc(Br)c(Oc3cc(Cl)cc(C#N)c3)c2F)c(=O)[nH]c1=O,IC50,,scintillation proximity / radiometric,Wild type,0.003 µM
C=CCNC(C)Cn1c(=S)[nH]c2ccccc21,IC50,,RT activity,,>100 µg/mL
O=C(/C=C/c1ccc(O)c2c1[C@H](C(=O)O)[C@@H](c1ccc(O)c(O)c1)O2)O[C@H](Cc1ccc(O)c(O)c1)C(=O)O,IC50,,nucleotide incorporation / radiometric,,>100 µg/mL
CC(C)CC(c1c(O)c(C=O)c(O)c(C=O)c1O)C1CCC(C)C2=CC(C(C)(C)O)CCC21C,IC50,,RT activity,,8.1 µM
COc1ccc2c(c1)N(C(=O)OC(C)C)[C@@H](CSC)C(=S)N2,IC50,,scintillation proximity / radiometric,RT-K104R,0.08 µM
CC1(C)C2=CC(=O)C(O)(c3ccccc3)C(=O)N2c2ccc(Cl)cc21,IC50,RF,nucleotide incorporation / radiometric,,4 µM
S=C(NCCc1ccc(Br)s1)Nc1ccc(Cl)cn1,IC50,,,,0.1 µM
C/C=C/C=C1\C=Cc2c(C(=O)OC)coc(=O)c21,IC50,,nucleotide incorporation,,45 µg/mL
O=C(OC1COc2cc(O)cc(O)c2C1)c1ccc(O)c(O)c1,IC50,A17,strand transfer,RT-K103N Y181C,100 µM
CC(=O)Oc1ccc(/C=C/C(=O)Oc2c(-c3ccc(Cl)c(Cl)c3)oc3ccccc3c2=O)cc1OC(C)=O,IC50,,,,>100 µM
Cc1cc(C)cc(Sc2c(C(C)C)c(COC(N)=O)cn2Cc2ccncc2)c1,IC50,,nucleotide incorporation / radiometric,,0.25 µM
CC(C)=CCN1c2cc(Cl)ccc2NC(=O)[C@@H]1C(C)C,IC50,,nucleotide incorporation,,1–10 µg/mL
Cc1ccc2c(c1)c(=O)c(C(=O)Nc1ccc(Cl)cc1)cn2[C@@H]1O[C@H](CO)[C@@H](O)[C@H]1O,IC50,HXB2,nucleotide incorporation / absorbance,,3.6–5 µM
CCOc1ccc2c(c1)N(C(=O)OC(C)C)[C@@H](CSC)C(=S)N2,IC50,,nucleotide incorporation,,0.001–0.01 µg/mL
CC1=CC(C2OC(CN3C(=O)CS[C@@H]3C3OC(n4ccc(=O)[nH]c4=O)[C@@H](O)[C@H]3O)[C@@H](O)[C@H]2O)C(=O)NC1=O,IC50,,RT activity,,12.9 µM
CO[C@H]1/C=C/O[C@@]2(C)Oc3c(C)c(O)c4c(O)c(c5c(c4c3C2=O)NC2(CCN(CC(C)C)CC2)N=5)=NC(=O)/C(C)=C\C=C\[C@H](C)[C@H](O)[C@@H](C)[C@@H](O)[C@@H](C)[C@H](OC(C)=O)[C@@H]1C,IC50,,nucleotide incorporation,,75 µg/mL
CCN1c2cccnc2N(C)C(=O)c2ccc(C)nc21,IC50,,nucleotide incorporation,,>>1 µM
COc1cc(/C=C/C(=O)Oc2c(-c3ccc(Cl)cc3)oc3ccccc3c2=O)ccc1O,IC50,,,,>100 µM
S=C(NCCc1ccc(Br)s1)Nc1nc2ccccc2s1,IC50,,,,>100 µM
COc1cccc2c1N(C(=O)OC(C)C)C(CSC)C(=S)N2,IC50,,nucleotide incorporation,,0.01–0.1 µg/mL
Cc1cc(C)nc(NC(=S)NCCc2ccc(Br)s2)c1,IC50,,,,>100 µM
CCN1c2ccc([N+](=O)[O-])nc2N(C)C(=O)c2cccnc21,IC50,,nucleotide incorporation,,>>1 µM

8 of the rows above, restated:

{"smiles": "N#Cc1cc(Cl)cc(Oc2c(Br)ccc(Cc3ccc[nH]c3=O)c2F)c1", "read-out": "IC50", "read by": "scintillation proximity / radiometric", "changes": "Wild type", "result": "0.019 µM"}
{"smiles": "CC(C)c1c(CO)cn(Cc2ccncc2)c1Sc1cccc(F)c1", "read-out": "IC50", "read by": "nucleotide incorporation / radiometric", "result": "0.48 µM"}
{"smiles": "CCCN(C)c1nc([C@@H](C)c2c(F)cccc2F)c(C)c(=O)[nH]1", "read-out": "IC50", "read by": "RT activity", "changes": "K103N", "result": ">20 µM"}
{"smiles": "Cc1c(C(C)c2c(F)cccc2F)nc(SC2CCCC2)[nH]c1=O", "read-out": "IC50", "read by": "nucleotide incorporation / radiometric", "changes": "RT-V106A", "result": "0.5 µM"}
{"smiles": "C[C@H]1C(=O)Nc2ccc(Cl)cc2N1Cc1ccccc1", "read-out": "IC50", "read by": "nucleotide incorporation", "result": "0.01–0.1 µg/mL"}
{"smiles": "S=C(NCCc1ccc(Br)s1)Nc1ccc(Cl)cn1", "read-out": "IC50", "result": "0.1 µM"}
{"smiles": "N#Cc1cc(Cl)cc(Oc2c(Br)ccc(Cn3ccc(=O)[nH]c3=O)c2F)c1", "read-out": "IC50", "read by": "scintillation proximity / radiometric", "changes": "Wild type", "result": "0.004 µM"}
{"smiles": "CCOc1ccc2c(c1)N(C(=O)OC(C)C)[C@@H](CSC)C(=S)N2", "read-out": "IC50", "read by": "nucleotide incorporation", "result": "0.001–0.01 µg/mL"}

ICn: concentration for n% inhibition. Two numbers with a dash give a range or band. Neighbouring rows are from separate reports.